Pooled drug test results. Numbers come from NIAID ChemDB, via PubChem.

Shared fields: enzyme or target tests; species: Hepatitis C virus; protein: Nonstructural protein 5B; read-out: inhibition

Percent inhibition refers to the dose given; in toxicity tests it is the harm to the cells. Lines come from different laboratories, so protocols vary.

compound	tested at	value
CSc1nc(Nc2ccc(N3CCOCC3)cc2)cc(N2CCN(CC(=O)NCCCN3CCCC3)CC2)n1	1 µg/mL	74%
O=C(O)c1ccc(S(=O)(=O)Nc2ccc(N3CCOCC3)cc2)cc1	0.01 µg/mL	24%
O=C(Nc1ccc2cn[nH]c2c1)c1cc(NCCc2ccccn2)c(F)cc1F	1 µg/mL	39%
CSc1nc(Nc2ccc(N3CCOCC3)cc2)cc(N2CCN(CC(=O)N3CCC(N4CCCC4)CC3)CC2)n1	1 µg/mL	76%
CN(C)CCNc1cc(C(=O)Nc2ccc3[nH]ncc3c2)c(F)cc1F	1 µg/mL	60%
CSc1nc(Nc2ccc(N3CCOCC3)cc2)cc(N2CCN(CC(=O)NCCN3CCCCC3)CC2)n1	1 µg/mL	70%
O=C(Nc1ccc2[nH]ncc2c1)c1cc(NCCN2CCOCC2)c(F)cc1F	1 µg/mL	26%
CSc1nc(Nc2ccc(N3CCOCC3)cc2)cc(N2CCN(CC(=O)N3CCN(CCO)CC3)CC2)n1	1 µg/mL	70%
CN(C)CCNc1cc(C(=O)Nc2ccc3cn[nH]c3c2)c(F)cc1F	0.1 µg/mL	0%
COCCN1CCN(C(=O)CN2CCN(c3cc(Nc4ccc(N5CCOCC5)cc4)nc(SC)n3)CC2)CC1	1 µg/mL	60%
COc1nc(NCCN2CCOCC2)nc(Nc2ccc3cn[nH]c3c2)n1	0.1 µg/mL	16%
CSc1nc(Nc2ccc(N3CCOCC3)cc2)cc(N2CCN(CC(=O)NCCCN3CCOCC3)CC2)n1	1 µg/mL	77%
O=C(NCc1ccccn1)c1ccc(S(=O)(=O)Nc2ccc(N3CCOCC3)cc2)cc1	1 µg/mL	76%
CSc1nc(Nc2ccc(N3CCOCC3)cc2)cc(N2CCN(CC(=O)N3CCN(C)CC3)CC2)n1	1 µg/mL	72%
CNC(=O)C1CCN(c2nc(Nc3ccc4[nH]ncc4c3)nc(OC)n2)CC1	1 µg/mL	33%
O=C(Nc1ccc2cn[nH]c2c1)c1cc(NCCN2CCOCC2)c(F)cc1F	1 µg/mL	26%
COc1nc(Nc2ccc3[nH]ncc3c2)nc(NN2CCOCC2)n1	0.1 µg/mL	15%
O=C(NCCN1CCOCC1)c1ccc(S(=O)(=O)Nc2ccc(N3CCOCC3)cc2)cc1	10 µg/mL	94%
CC(C)CNc1cc(C(=O)Nc2ccc3cn[nH]c3c2)c(F)cc1F	1 µg/mL	23%
COc1nc(Nc2ccc3cn[nH]c3c2)nc(N2CCN(CCO)CC2)n1	10 µg/mL	83%
O=C(c1ccc(S(=O)(=O)Nc2ccc(N3CCOCC3)cc2)cc1)N(Cc1ccccn1)Cc1ccccn1	1 µg/mL	68%

For reference, 2 entries again:

| compound | tested at | value |
|---|---|---|
| CN(C)CCNc1cc(C(=O)Nc2ccc3[nH]ncc3c2)c(F)cc1F | 1 µg/mL | 60% |
| O=C(Nc1ccc2cn[nH]c2c1)c1cc(NCCc2ccccn2)c(F)cc1F | 1 µg/mL | 39% |